Measured values from several laboratories, pooled; numbers as filed in NIAID ChemDB.

Shared fields: tests in culture; agent: Respiratory syncytial virus; endpoint: EC50

An empty or dashed field is not shown. Lines come from different laboratories, so protocols vary. ECn is the concentration giving n% inhibition of infection, replication or growth. a–b is a range or a potency band.

compound | strain | cells | read by | value
Cc1cn([C@@H]2C[C@@H](O)[C@H](CO)O2)c(=O)[nH]c1=O | TYPE A | MA-104 | - | >100 µM
C#Cc1c(C(N)=O)ncn1[C@@H]1O[C@H](CO)[C@@H](O)[C@H]1O | TYPE A/NS-100 | HeLa | plaque count | 0.06 µg/mL
NC(=O)c1ncn([C@@H]2O[C@H](CO)[C@@H](O)[C@H]2O)n1 | 109 | HEP-2 | plaque count | 4 µg/mL
O=c1cc(-c2ccc(O)c(-c3c(O)cc(O)c4c(=O)cc(-c5ccc(O)cc5)oc34)c2)oc2cc(O)cc(O)c12 | - | HEP-2 | plaque count | 5.5 µg/mL
COc1c(C)c2c(c(O)c1CC(=O)O)C(=O)OC2 | TYPE A/NS-100 | HeLa | plaque count | 0.16 µg/mL
Cc1cn([C@@H]2C[C@@H](O)[C@H](CO)O2)c(=O)[nH]c1=O | TYPE A | MA-104 | - | >100 µM
c1ccc2c(c1)CSSC2 | clone 55 (RD3-0028-resistant) | HeLa | cytopathic effect | >244.4 µM
NC(=O)c1ncn([C@@H]2O[C@H](CO)[C@@H](O)[C@H]2O)n1 | K656 | HEP-2 | plaque count | 14.7 µM
NCCN1CCC(Nc2nc3ccccc3n2Cc2ccccn2)CC1 | - | HELA/M | MTT | 0.398 µM
O=c1cc(-c2ccc(O)c(-c3c(O)cc4oc(-c5ccc(O)cc5)cc(=O)c4c3O)c2)oc2cc(O)cc(O)c12 | UTAH 89 | MA-104 | neutral red | 50 µg/mL
Nc1ncnc2c1ccn2[C@@H]1O[C@H](CO)[C@H](O)[C@H]1O | LONG | HeLa | cytopathic effect | >4 µg/mL
Nc1ccn([C@@H]2C[C@@H](O)[C@H](CO)O2)c(=O)n1 | TYPE A | MA-104 | - | >100 µM
O=c1cc(-c2ccc(O)c(-c3c(O)cc4oc(-c5ccc(O)cc5)cc(=O)c4c3O)c2)oc2cc(O)cc(O)c12 | - | HEP-2 | plaque count | >100 µg/mL
NC(=O)c1[nH]nc([C@@H]2O[C@H](CO)[C@@H](O)[C@H]2O)c1O | LONG | HeLa | cytopathic effect | 0.09 µg/mL
Cc1ccc(O)c(Cn2c(NC3CCN(CCN)CC3)nc3c(C)cccc32)n1 | - | HELA/M | MTT | 0.00016 µM
Nc1ncnc2c1ncn2[C@@H]1C=C(CO)[C@@H](O)[C@H]1O | LONG | HeLa | cytopathic effect | >20 µg/mL
Cc1cccc(Cn2c(NC3CCN(CCN)CC3)nc3c(Cl)cccc32)n1 | - | - | - | 0.126 µM
O=c1n(Cc2nc3ccccc3n2CCCCO)c2cnccc2n1C1CC1 | Clinical isolates | - | - | 0.009–0.05 µM
CCOC(c1cccc(Br)n1)n1c(NC2CCN(CC(N)C(C)C)CC2)nc2ccccc21 | - | - | - | 0.008 µM
Cc1nnnn1/N=C/c1ccc(O)c(C(c2ccc(O)cc2)c2cc(/C=N/n3nnnc3C)ccc2O)c1 | A2 | HEP-2 | cell fusion | 0.0054 µM
Nc1ncnc2c1ncn2[C@@H]1C[C@@H](O)[C@H](CO)O1 | TYPE A | MA-104 | - | >100 µM
CC(C)CCn1c(Cn2c(=O)n(Cc3ccc(C(=O)N[C@@H](CC(=O)O)C(=O)O)cc3)c3ccccc32)nc2ccccc21 | - | - | - | <50 µM

The last 2 rows once more:

{"compound": "Nc1ncnc2c1ncn2[C@@H]1C[C@@H](O)[C@H](CO)O1", "strain": "TYPE A", "cells": "MA-104", "value": ">100 µM"}
{"compound": "CC(C)CCn1c(Cn2c(=O)n(Cc3ccc(C(=O)N[C@@H](CC(=O)O)C(=O)O)cc3)c3ccccc32)nc2ccccc21", "value": "<50 µM"}